Pooled drug test results. Numbers come from NIAID ChemDB, via PubChem.

All rows: growth or infection tests; species: Human cytomegalovirus

ECn: concentration that inhibits the pathogen or its effect by n%.

compound,measure,strain,cells,method,result
Nc1nc2c(ncn2CCCC(O)CF)c(=O)[nH]1,EC50,AD169,HEL,cytopathic effect,>50 µg/mL
Nc1ccn(C[C@@H](CO)OCP(=O)(O)O)c(=O)n1.O=C(O)P(=O)(O)O,EC75,Towne (ganciclovir- foscarnet-susceptible),MRC-5,plaque count,0.74 µM
Cc1ccn2c(CSCc3ccccc3)c(-c3ccco3)nc2c1,EC50,AD169,HEL,cytopathic effect,>50 µg/mL
Cc1cn([C@H]2C[C@](O)(CO)CO2)c(=O)[nH]c1=O,EC50,AD169,HFF,-,>100 µM
O[C@@H]1[C@H](O)CO[C@H]1n1c(Cl)nc2cc(Cl)c(Cl)cc21,EC50,C4 (BDCRB- maribavir-resistant),HFF,plaque count,25 µM
O=C1c2ccccc2C(=O)N1C12CC3CC(CC(C(=O)O)(C3)C1)C2,EC50,DAVIS,HEL,plaque count,>100 µg/mL
Nc1ccn(C[C@@H](CO)OCP(=O)(O)O)c(=O)n1,EC50,AD169,HFF,plaque count,0.3 µM
CCC1CCCCN1c1nc(C)c([N+](=O)[O-])c(-n2ccnc2)n1,EC50,-,-,-,0.22 µM
Cc1ccn2c(CSCc3ccccc3)c(-c3ccncc3)nc2c1,EC50,DAVIS,HEL,cytopathic effect,>5 µg/mL
Nc1nc2c(ncn2[C@@H]2C[C@H](CO)[C@H]2CO)c(=O)[nH]1.O=C(O)P(=O)(O)O,EC50,AD169 (ganciclovir foscarnet-susceptible),MRC-5,plaque count,1.18 µM
COC[C@@H]1CCCN1c1nc(C)c([N+](=O)[O-])c(-n2ccnc2C)n1,EC50,-,-,-,0.15 µM
CNc1ncnc2c1ncn2[C@H]1S[C@@H](CO)C[C@@H]1N=[N+]=[N-],EC50,-,-,-,<100 µg/mL
CC(=O)OC1CC2(CO1)COC(C)(C)O2,EC50,AD169,HFF,-,>100 µM
Nc1ccn(CCCC(O)CF)c(=O)n1,EC50,DAVIS,HEL,cytopathic effect,12 µg/mL
OC[C@H]1O[C@H](c2ccc(F)cc2F)C[C@@H]1O,EC50,AD169,HEL,cytopathic effect,>200 µM
CC1(C)OCC2(COC(O)C2)O1,EC50,AD169,HFF,-,>100 µM
OC[C@H]1O[C@H](c2cc(F)c(F)cc2F)C[C@@H]1O,EC50,AD169,HEL,cytopathic effect,>200 µM
O=C1c2cccc([N+](=O)[O-])c2C(=O)N1C12CC3CC(CC(C3)C1)C2,EC50,DAVIS,HEL,plaque count,>100 µg/mL
Cn1cc(C(=O)NCc2ccc(Cl)cc2)c(=O)c2cc(CN3CCOCC3)ccc21,EC50,Coffman,HFF,plaque count,5 µM
CCc1nccn1-c1nc(NC2Cc3ccccc3C2)nc(C)c1[N+](=O)[O-],EC50,-,-,-,0.8 µM
Cc1cn(CCCC(O)CF)c(=O)[nH]c1=O,EC50,DAVIS,HEL,cytopathic effect,>50 µg/mL
O=[N+]([O-])c1cc([C@H]2C[C@H](O)[C@@H](CO)O2)c(F)cc1F,EC50,AD169,HEL,cytopathic effect,118 µM
COc1ccccc1CNC(=O)C1=Cc2ccncc2CC1,EC50,4760RECPOLA1-1-1,HFF,plaque count,5.9 µM
Cc1c(Br)cc(Br)c2ncc(CSCc3ccccc3)n12,EC50,DAVIS,HEL,plaque count,>50 µg/mL
Cc1cn([C@@H]2C[C@](O)(CO)CO2)c(=O)[nH]c1=O,EC50,AD169,HFF,-,>100 µM
Cc1nc(NC2Cc3ccccc3C2)nc(-n2ccnc2)c1[N+](=O)[O-],EC50,-,-,-,2 µM
CC(C)Oc1ccccc1CNC(=O)c1ccc2cnccc2n1,EC50,4760RECPOLA1-1-1,HFF,plaque count,0.04 µM
CC(C)Nc1nc2cc(Cl)c(Cl)cc2n1[C@H]1O[C@@H](CO)[C@H](O)[C@@H]1O,EC50,C8501,MRC-5,plaque count,0.34 µM
COc1cc(F)c([C@H]2C[C@H](O)[C@@H](CO)O2)cc1[N+](=O)[O-],EC50,DAVIS,HEL,cytopathic effect,>200 µM
[N-]=[N+]=N[C@H]1C[C@H](CO)S[C@H]1n1ccc(N)nc1=O,EC50,-,-,-,<100 µg/mL
CC[C@H]1CCCC[C@H]1Nc1nc(C)c([N+](=O)[O-])c(-n2ccnc2)n1,EC50,-,-,-,0.09 µM
Nc1nc2c(ncn2COC(CO)CO)c(=O)[nH]1,EC50,TOWNE,HFF,virus yield,<4.4 µM
Cc1nc(NC2CCc3c(F)ccc(F)c32)nc(-n2ccnc2)c1[N+](=O)[O-],EC50,-,-,-,0.138 µM
Cc1c(Br)cc(Br)c2ncc(CSCc3ccc(F)cc3)n12,EC50,DAVIS,HEL,plaque count,>5 µg/mL
C[C@@H]1O[C@@H](n2c(Cl)nc3cc(Cl)c(Cl)cc32)[C@H](O)[C@@H]1O,EC50,TOWNE,HFF,plaque count,0.66 µM
CN(C)c1cccc2c(S(=O)(=O)Nc3ccc(NC(=O)C(C)(C)CO)cc3)cccc12,EC50,V2 (ganciclovir-resistant),-,plaque count,0.3 µM
Cc1ccn2c(CSCc3ccccc3)c(C(F)(F)F)nc2c1,EC50,DAVIS,HEL,cytopathic effect,1.5 µg/mL
OC[C@H]1O[C@@H](n2c(Br)nc3cc(Cl)c(Cl)cc32)[C@H](O)[C@@H]1O,EC50,AD169,MRC-5,plaque count,<0.6 µM
COC(=O)[C@H](C)NP(=O)(OC[C@H]1C/C1=C/n1cnc2c(N)nc(N)nc21)Oc1ccccc1,EC50,AD169,HFF,plaque count,7.8 µM
[N-]=[N+]=N[C@H]1C[C@@H](CO)S[C@H]1n1cnc2c(N)ncnc21,EC50,-,-,-,<100 µg/mL
COC(=O)CC[C@@H]1C[C@H]2CCC[C@](NC(=O)c3ccccc3C(=O)N[C@@]34CCC[C@@H](C[C@H](CCC(=O)OC)C3)C4)(C2)C1,EC50,AD169,HEL,plaque count,>20 µg/mL
[N-]=[N+]=N[C@@H]1C[C@@H](CO)S[C@H]1n1cnc2c(=O)[nH]cnc21,EC50,-,-,-,<100 µg/mL
O=C(NCc1ccc(Cl)cc1)c1c[nH]c2ccc(CCCO)cc2c1=O,EC50,PHO,-,plaque count,0.7 µM
Cc1ccn2c(CSCc3ccccc3)c(-c3ccc4ccccc4c3)nc2c1,EC50,AD169,HEL,cytopathic effect,>0.5 µg/mL
CC#Cc1cn([C@H]2C[C@H](O)[C@@H](CO)O2)c(=O)[nH]c1=O,EC50,-,MRC-5,plaque count,>100 µM
Nc1nc2c(ncn2C=C2CC2CO)c(=O)[nH]1,EC50,EC,HFF,plaque count,5.1 µM
O=C(NCCc1ccccc1)C1=Cc2ccncc2CC1,EC50,P8,MRC-5,plaque count,18 µM
Cc1nc(NC2CCc3cc(F)ccc32)nc(-n2ccnc2)c1[N+](=O)[O-],EC50,-,-,-,0.35 µM
OC[C@H]1O[C@@H](c2cc(F)c(F)cc2F)C[C@@H]1O,EC50,AD169,HEL,cytopathic effect,>200 µM
Cc1nc(NC2Cc3cccc(F)c3C2)nc(-n2ccnc2)c1[N+](=O)[O-],EC50,-,-,-,0.125 µM
Nc1nc2c(ncn2COC(CO)CO)c(=O)[nH]1,EC50,C8912,MRC-5,plaque count,2.6 µM
OC[C@H]1O[C@@H](c2cc(C(F)(F)F)c(F)cc2F)C[C@@H]1O,EC50,DAVIS,HEL,cytopathic effect,>200 µM
Nc1nc2c(ncn2COC(CO)CO)c(=O)[nH]1,EC90,DAVIS,HFF,plaque count,3.2 µM
Nc1nc(NC2CC2)c2ncn(C=C3CC3CO)c2n1,EC50,C9208/5-4-2,HFF,plaque count,4 µM
Cc1nc(N[C@H]2CCOC[C@@H]2C)nc(-n2ccnc2)c1[N+](=O)[O-],EC50,-,-,-,0.13 µM
O=C(NCc1ccc(Cl)cc1)c1cn2c3c(cc(CN4CCOCC4)cc3c1=O)OC(c1cccnc1)C2,EC50,759/R D100 (GCV-resistant),HFF,plaque count,2.4 µM
O=C1NC23CC4CC(C2)C2C(C4)C3C2(O)c2ccccc21,EC50,AD169,HEL,plaque count,>100 µg/mL
Cc1cc([C@@H]2C[C@H](O)[C@@H](CO)O2)c(Cl)cc1F,EC50,DAVIS,HEL,cytopathic effect,>200 µM
O=c1ccn([C@@H]2O[C@H](/C=C/C=C(Br)Br)[C@@H](O)[C@H]2O)c(=O)[nH]1,EC50,AD169,HEL,-,>120 µM
Nc1ccn(C[C@@H](CO)OCP(=O)(O)O)c(=O)n1,EC75,PAAR,MRC-5,plaque count,0.96 µM
Cc1c(Br)cc(Br)c2ncc(CSCc3ccc(Cl)cc3)n12,EC50,AD169,HEL,plaque count,>20 µg/mL
OC[C@H]1O[C@@H](n2c(Cl)nc3cc(Cl)c(Cl)cc32)[C@H](O)[C@@H]1O,EC50,TOWNE,-,virus yield,<1.1 µM
Nc1nc2ncn(/C=C3\C(F)C3(CO)CO)c2c(=O)[nH]1,EC50,AD169,HFF,cytopathic effect,>300 µM
Nc1ccn(C[C@H]2COP(=O)(O)CO2)c(=O)n1.O=C(O)P(=O)(O)O,EC75,AD169 (ganciclovir foscarnet-susceptible),MRC-5,plaque count,0.93 µM
Cc1cc(Br)cn2c(CSCc3ccccc3)cnc12,EC50,AD169,HEL,cytopathic effect,>20 µg/mL
OC[C@H]1O[C@H](c2cc(I)c(F)cc2F)C[C@@H]1O,EC50,AD169,HEL,cytopathic effect,111 µM
Cc1c(Br)cc(Br)c2ncc(CSCc3ccc(Cl)c(Cl)c3)n12,EC50,DAVIS,HEL,plaque count,>5 µg/mL
OC[C@H]1O[C@@H](n2c(Br)nc3cc(Cl)c(Cl)cc32)[C@H](O)[C@@H]1O,EC50,AD169,HFF,virus yield,0.36 µM

Blank or dashed fields: not listed here. Neighbouring rows are from separate reports.